# Data as given in PubChem BioAssay AID1259414 (Drosophila RNAi Screening Center, 2018)
# Assay: 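Host factors increasing or decreasing Wolbachia levels in cultured fly cells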 (primary screen)
# Cells: Drosophila JW18 cells infected with Wolbachia
# Knock-down reagent: long dsRNA against Drosophila genes, 0.25 µg dsRNA per well of a 384-well plate
# Duration: 5 days
# Challenge: cells persistently infected with Wolbachia before knock-down; no added drug
# Measured: 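Imaged fluorescence in situ signal for Wolbachia 23S rRNA per DAPI-counted host cell, given as a robust z-score within each plate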
# Reading the numbers: Wolbachia per cell robust z: higher = more Wolbachia per host cell than the plate typical
# Active means: 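Hit when robust z is 1.5 or more, or -1.5 or less, in at least two of three replicates; excludes dsRNAs with several or no targets, genes not expressed in JW18 and well A1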
# The screen tested about 24,000 reagents; shown is an unselected part of those that have a named target and a result. Of all reagents, about 1,210 (5%) were called active. 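Inactive calls also include excluded dsRNAs with several or no targets, genes unexpressed in JW18, and well A1, regardless of score.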
target gene,DRSC id,"Wolbachia per cell robust z, rep 1","Wolbachia per cell robust z, rep 2","Wolbachia per cell robust z, rep 3",activity call
Or67a (Odorant receptor 67a),DRSC11240,0.146,-0.136,-0.247,inactive
CG30002,DRSC05182,-3.45,-3.04,-0.849,inactive
CG30002,DRSC24738,0.653,-0.344,0.564,inactive
Spt7,DRSC19997,-3.61,0.61,-0.374,inactive
Spt7,DRSC24902,-0.301,-1.12,-2.58,inactive
osi (orsai),DRSC02931,-6.7,-3.58,-0.252,inactive
CG13436,DRSC06396,-0.412,0.703,0.94,inactive
snsl (snustorr snarlik),DRSC00543,-0.163,-0.501,-1.19,inactive
snsl (snustorr snarlik),DRSC25714,-0.771,-1.15,0.277,inactive
Rh4 (Rhodopsin 4),DRSC11268,1.02,1.8,0.0503,inactive
Rh4 (Rhodopsin 4),DRSC27381,-1.38,-0.125,-0.78,inactive
CG9452,DRSC11075,0.248,-0.217,-0.826,inactive
CG9452,DRSC23344,0.546,-3.54,-0.619,inactive
"betaNACtes6 (Nascent-associated complex beta-subunit-like, testis 6)",DRSC22925,0.313,-0.621,-0.544,inactive
"betaNACtes6 (Nascent-associated complex beta-subunit-like, testis 6)",DRSC26649,-0.383,-1.11,-0.548,inactive
wapl (wings apart-like),DRSC18851,1.05,0.64,0.33,inactive
wapl (wings apart-like),DRSC27941,1.88,-0.173,-0.53,inactive
RpS10a (Ribosomal protein S10a),DRSC14161,-7.65,0.578,0.216,inactive
RpS10a (Ribosomal protein S10a),DRSC26061,-0.257,1.67,0.481,inactive
CG15431,DRSC00446,-3.71,-0.394,-0.635,inactive
CG15431,DRSC29532,0.61,1.24,1.13,inactive
CG10359,DRSC08156,-1.22,0.172,0.612,inactive
CG14286,DRSC14767,0.597,0.924,-0.82,inactive
CG14286,DRSC29125,-0.0829,-0.235,-0.556,inactive
CG5386,DRSC25017,-0.16,-0.227,-0.143,inactive
Sld5,DRSC14892,-0.0307,-0.635,-0.263,inactive
Sld5,DRSC41448,-2.38,-2.53,-0.981,active
Atg4a (Autophagy-related 4a),DRSC00656,0.316,-0.307,-0.44,inactive
Atg4a (Autophagy-related 4a),DRSC28580,-1.01,-1.21,-8.32,inactive

Individual results from the entries so far.
CG14286 [DRSC29125], Wolbachia per cell robust z, rep 2: -0.235
Value for CG9452 [DRSC11075] under “Wolbachia per cell robust z, rep 1”: 0.248
